Measurements taken from paper PMC4014698 (Pharmaceuticals, 2014).
Non-standard residues stand in square brackets, D forms with d. Residues, ends and D or L forms follow the SMILES beside them.

Legend:
[1] = test system: Pseudomonas aeruginosa versus human red blood cells; type: cell-based; conditions: ratio of HC50 (µM, 18 h) over geometric mean MIC (µM)
[2] = test system: Acinetobacter baumannii versus human red blood cells; type: cell-based; conditions: ratio of HC50 (µM, 18 h) over geometric mean MIC (µM)

Compound	Pseudomonas aeruginosa T. I. (therapeutic index) [1]	Acinetobacter baumannii T. I. (therapeutic index) [2]
CSCC[C@@H](NC(=O)[C@@H](Cc1c[nH]c2ccccc12)NC(=O)[C@@H](CC(C)C)NC(=O)[C@@H](C)N)C(=O)N[C@@H](C(=O)N[C@H](CC(C)C)C(=O)N[C@H](CCCCN)C(=O)N[C@H](CCCCN)C(=O)N[C@H](CCCCN)C(=O)N[C@@H](C(=O)N[C@H](CC(C)C)C(=O)N[C@H](CCCCN)C(=O)N[C@H](C)C(=O)N[C@H](CCCCN)C(=O)N[C@H](C)C(=O)N[C@H](CCCCN)C(=O)N[C@H](C)C(=O)N[C@H](CC(C)C)C(=O)N[C@H](CC(N)=O)C(=O)N[C@H](C)C(=O)N[C@@H](C(=O)N[C@H](CC(C)C)C(=O)N[C@@H](C(=O)NCC(=O)N[C@H](C)C(=O)N[C@H](CC(N)=O)C(=O)N[C@H](C)C(N)=O)C(C)C)C(C)C)C(C)C)[C@H](C)O [D-Dermaseptin S4 L7K,A14K] (H-[dA][dL][dW][dM][dT][dL][dK][dK][dK][dV][dL][dK][dA][dK][dA][dK][dA][dL][dN][dA][dV][dL][dV]G[dA][dN][dA]-NH2)	49	219
CSCC[C@@H](NC(=O)[C@@H](Cc1c[nH]c2ccccc12)NC(=O)[C@@H](CC(C)C)NC(=O)[C@@H](C)N)C(=O)N[C@@H](C(=O)N[C@H](CC(C)C)C(=O)N[C@H](CC(C)C)C(=O)N[C@H](CCCCN)C(=O)N[C@H](CCCCN)C(=O)N[C@@H](C(=O)N[C@H](CC(C)C)C(=O)N[C@H](CCCCN)C(=O)N[C@H](C)C(=O)N[C@H](C)C(=O)N[C@H](C)C(=O)N[C@H](CCCCN)C(=O)N[C@H](C)C(=O)N[C@H](CC(C)C)C(=O)N[C@H](CC(N)=O)C(=O)N[C@H](C)C(=O)N[C@@H](C(=O)N[C@H](CC(C)C)C(=O)N[C@@H](C(=O)NCC(=O)N[C@H](C)C(=O)N[C@H](CC(N)=O)C(=O)N[C@H](C)C(N)=O)C(C)C)C(C)C)C(C)C)[C@H](C)O [D-Dermaseptin S4] (H-[dA][dL][dW][dM][dT][dL][dL][dK][dK][dV][dL][dK][dA][dA][dA][dK][dA][dL][dN][dA][dV][dL][dV]G[dA][dN][dA]-NH2)	0.05	0.3
CC[C@@H](C)[C@@H](NC(=O)CNC(=O)[C@@H](CCCNC(=N)N)NC(=O)[C@@H](Cc1ccccc1)NC(=O)[C@H](NC(=O)[C@@H](Cc1c[nH]cn1)NC(=O)[C@@H](Cc1c[nH]cn1)NC(=O)[C@@H](Cc1ccccc1)NC(=O)[C@H](N)Cc1ccccc1)[C@H](C)CC)C(=O)N[C@@H](C(=O)N[C@H](Cc1c[nH]cn1)C(=O)N[C@@H](C(=O)N[C@H](CCCCN)C(=O)N[C@H](CCCCN)C(=O)N[C@@H](C(=O)N[C@@H](C(=O)N[C@H](Cc1c[nH]cn1)C(=O)N[C@H](CCCNC(=N)N)C(=O)N[C@H](CC(C)C)C(=O)N[C@@H](C(=O)N[C@@H](C(=O)NCC(N)=O)[C@H](C)O)C(C)C)[C@H](C)CC)[C@H](C)O)C(C)C)C(C)C [D-Piscidin 1 G13K] (H-[dF][dF][dH][dH][dI][dF][dR]G[dI][dV][dH][dV][dK][dK][dT][dI][dH][dR][dL][dV][dT]G-NH2)	0.3	1.3
CC[C@@H](C)[C@@H](NC(=O)[C@@H](Cc1c[nH]cn1)NC(=O)[C@@H](Cc1c[nH]cn1)NC(=O)[C@@H](Cc1ccccc1)NC(=O)[C@H](N)Cc1ccccc1)C(=O)N[C@H](Cc1ccccc1)C(=O)N[C@H](CCCNC(=N)N)C(=O)NCC(=O)N[C@H](CCCCN)C(=O)N[C@@H](C(=O)N[C@H](Cc1c[nH]cn1)C(=O)N[C@@H](C(=O)NCC(=O)N[C@H](CCCCN)C(=O)N[C@@H](C(=O)N[C@@H](C(=O)N[C@H](Cc1c[nH]cn1)C(=O)N[C@H](CCCNC(=N)N)C(=O)N[C@H](CC(C)C)C(=O)N[C@@H](C(=O)N[C@@H](C(=O)NCC(N)=O)[C@H](C)O)C(C)C)[C@H](C)CC)[C@H](C)O)C(C)C)C(C)C [D-Piscidin 1 I9K] (H-[dF][dF][dH][dH][dI][dF][dR]G[dK][dV][dH][dV]G[dK][dT][dI][dH][dR][dL][dV][dT]G-NH2)	3.2	33
CC[C@@H](C)[C@@H](NC(=O)CNC(=O)[C@@H](CCCNC(=N)N)NC(=O)[C@@H](Cc1ccccc1)NC(=O)[C@H](NC(=O)[C@@H](Cc1c[nH]cn1)NC(=O)[C@@H](Cc1c[nH]cn1)NC(=O)[C@@H](Cc1ccccc1)NC(=O)[C@H](N)Cc1ccccc1)[C@H](C)CC)C(=O)N[C@@H](C(=O)N[C@H](Cc1c[nH]cn1)C(=O)N[C@H](CCCCN)C(=O)NCC(=O)N[C@H](CCCCN)C(=O)N[C@@H](C(=O)N[C@@H](C(=O)N[C@H](Cc1c[nH]cn1)C(=O)N[C@H](CCCNC(=N)N)C(=O)N[C@H](CC(C)C)C(=O)N[C@@H](C(=O)N[C@@H](C(=O)NCC(N)=O)[C@H](C)O)C(C)C)[C@H](C)CC)[C@H](C)O)C(C)C [D-Piscidin 1 V12K] (H-[dF][dF][dH][dH][dI][dF][dR]G[dI][dV][dH][dK]G[dK][dT][dI][dH][dR][dL][dV][dT]G-NH2)	2.1	13
CC[C@@H](C)[C@@H](NC(=O)CNC(=O)[C@@H](CCCNC(=N)N)NC(=O)[C@@H](Cc1ccccc1)NC(=O)[C@H](NC(=O)[C@@H](Cc1c[nH]cn1)NC(=O)[C@@H](Cc1c[nH]cn1)NC(=O)[C@@H](Cc1ccccc1)NC(=O)[C@H](N)Cc1ccccc1)[C@H](C)CC)C(=O)N[C@@H](C(=O)N[C@H](Cc1c[nH]cn1)C(=O)N[C@@H](C(=O)NCC(=O)N[C@H](CCCCN)C(=O)N[C@@H](C(=O)N[C@@H](C(=O)N[C@H](Cc1c[nH]cn1)C(=O)N[C@H](CCCNC(=N)N)C(=O)N[C@H](CC(C)C)C(=O)N[C@@H](C(=O)N[C@@H](C(=O)NCC(N)=O)[C@H](C)O)C(C)C)[C@H](C)CC)[C@H](C)O)C(C)C)C(C)C [D-Piscidin 1] (H-[dF][dF][dH][dH][dI][dF][dR]G[dI][dV][dH][dV]G[dK][dT][dI][dH][dR][dL][dV][dT]G-NH2)	0.1	0.6
